A mixed list of measured activities; the numbers were collected in NIAID ChemDB.

Common to all: growth or infection tests; organism: Hepatitis B virus

Inhibition is in % at the dose shown (toxicity tests: loss of growth or viability). Rows are shuffled and stem from different studies. ECn is the concentration giving n% inhibition of infection, replication or growth. a–b is a range or a potency band. An empty or dashed field is not shown.

compound	read by	measure	strain or isolate	tested at	cell line	result
COc1ccc(-n2c(C(=O)NCc3ccnnc3)c3n(c2=O)CCN(C(=O)c2ccc(Cl)c(Cl)c2)C3)cc1	PCR	EC50	-	-	HepG2.117	>5 µM
CCOC(=O)c1sc(NC(=O)CSc2nnc(Cc3ccccc3)o2)c(C#N)c1C	-	inhibition	gtA	10 µM	Huh7	>43%
O=C(O[C@@H]1Cc2c(O)cc(O)cc2O[C@@H]1c1cc(O)c(O)c(O)c1)c1cc(O)c(O)c(O)c1	PCR	inhibition	-	25 µM	-	42.2%
Cc1sc2nc(-c3ccc([N+](=O)[O-])cc3)[nH]c(=O)c2c1C	-	inhibition	gtD	10 µM	Huh7	>43%
C.O=C(Nc1ccc(F)c(F)c1)c1cc(S(=O)(=O)N2CC(F)(F)C2)ccc1F	-	inhibition	-	6.3 µM	-	90%
COC1OC(CSc2nc(C)cc(=O)[nH]2)C(O)C1O	ELISA	inhibition	-	100 µM	HepG2 2.2.15	27.7%
O=C(NCc1ccccc1)c1c2n(c(=O)n1-c1ccc(N3CC(F)(F)C3)cc1)CCN(C(=O)c1ccc(Br)c(Cl)c1)C2	PCR	EC50	-	-	HepG2.117	0.1–0.5 µM
COC1OC(CSc2nccc(=O)[nH]2)C(O)C1O	ELISA	inhibition	-	100 µM	HepG2 2.2.15	88.5%
C#C[C@@H](C)NC(=O)C(=O)c1c(C)c(C(=O)Nc2ccc(F)c(C#N)c2)n(C)c1C	PCR	EC50	-	-	HepG2.2.15	0.001–0.0099 µM
COc1ccc(CNC(=O)c2c3n(c(=O)n2CCc2ccccc2)CCN(C(=O)c2ccc(Br)c(Cl)c2)C3)cc1	-	EC50	-	-	Hep2.117	>5 µM
C[C@@]12C(=O)N(CCCCN3C(=O)[C@@]4(C)C5CCC(O5)[C@@]4(C)C3=O)C(=O)[C@]1(C)C1CCC2O1	PCR	inhibition	-	0.003 µM	HepG2.2.15	<40%
Cc1c(C(=O)C(=O)NC2(c3cn[nH]n3)CC(F)(F)C2)c(C)n(C)c1C(=O)Nc1ccc(F)c(C#N)c1	PCR	EC50	-	-	HepG2.2.15	<0.001 µM
O=c1c(O)c(-c2ccc(O)c(O)c2)oc2cc(O)cc(O)c12	ELISA / antigen	inhibition	-	30 µM	HepG2.2.15	75.4%
COC1OC(Cn2ccc(=O)nc2SC)C(O)C1O	ELISA	inhibition	-	100 µM	HepG2 2.2.15	25.3%
Cc1c(C(=O)C(=O)NC2(c3cnn(C4CC4)n3)CC(F)(F)C2)c(C)n(C)c1C(=O)Nc1ccc(F)c(C(F)(F)F)c1	PCR	EC50	-	-	HepG2.2.15	0.001–0.0099 µM
C[C@H]1Cn2c(c(C(=O)NCc3ccccc3)n(-c3ccc(OC4CC4)cc3)c2=O)CN1C(=O)c1ccc(Br)c(Cl)c1	PCR	EC50	-	-	HepG2.117	0.1–0.5 µM
CCCc1cc(=O)[nH]c(SCC2OC(OC)C(O)C2O)n1	ELISA	inhibition	-	100 µM	HepG2 2.2.15	86.6%
COC(=O)Oc1nsnc1N1CCOCC1	-	inhibition	gtD	10 µM	Huh7	>43%
Cc1c(C(=O)C(=O)NC(C)(C)c2cnc[nH]2)c(C)n(C)c1C(=O)Nc1ccc(F)c(C#N)c1	PCR	EC50	-	-	HepG2.2.15	0.001–0.0099 µM
Nc1nc(=O)c2ncn([C@@H]3O[C@H](CO)[C@@H](O)[C@H]3O)c2c(=O)[nH]1	antigen	inhibition	-	10 µM	2.2.15	50%

The last 2 rows once more:

{"compound": "Cc1c(C(=O)C(=O)NC(C)(C)c2cnc[nH]2)c(C)n(C)c1C(=O)Nc1ccc(F)c(C#N)c1", "read by": "PCR", "measure": "EC50", "cell line": "HepG2.2.15", "result": "0.001–0.0099 µM"}
{"compound": "Nc1nc(=O)c2ncn([C@@H]3O[C@H](CO)[C@@H](O)[C@H]3O)c2c(=O)[nH]1", "read by": "antigen", "measure": "inhibition", "tested at": "10 µM", "cell line": "2.2.15", "result": "50%"}